ChEMBL document CHEMBL1240457, “Synthesis and biological evaluation of cyclic nitrogen mustards based on carnitine framework” (2010)

What was measured:
NCI-H460 = experiment: Cytotoxicity against human H460 cells after 24 hrs by MTT assay
A-375 = experiment: Cytotoxicity against human A375 cells after 24 hrs by MTT assay

| SMILES | CC50 (NCI-H460) [µM] | CC50 (A-375) [µM] |
| --- | --- | --- |
| CCCCCCCCCCCCCCCC(=O)O[C@@H]1[C@@H](C(=O)O)CCC[C@H]1N(CCCl)CCCl | 215 |  |
| CCCCCCCC(=O)O[C@H]1[C@@H](C(=O)O)CCC[C@@H]1N(CCCl)CCCl |  | 322 |
